Results: PubChem BioAssay AID588519 (ICCB-Longwood Screening Facility, Harvard Medical School, 2011)
The entries are a selection whose mix differs from that of the whole data set. The source made the active and inactive calls. Rule as the data show it: active = % elongation below about 90%; inactive = the rest, inconclusive results apart.

Protein sequences, listed by entry. Tags and fused reporters are not part of them.
UniProt P03300, whole entry, looked up: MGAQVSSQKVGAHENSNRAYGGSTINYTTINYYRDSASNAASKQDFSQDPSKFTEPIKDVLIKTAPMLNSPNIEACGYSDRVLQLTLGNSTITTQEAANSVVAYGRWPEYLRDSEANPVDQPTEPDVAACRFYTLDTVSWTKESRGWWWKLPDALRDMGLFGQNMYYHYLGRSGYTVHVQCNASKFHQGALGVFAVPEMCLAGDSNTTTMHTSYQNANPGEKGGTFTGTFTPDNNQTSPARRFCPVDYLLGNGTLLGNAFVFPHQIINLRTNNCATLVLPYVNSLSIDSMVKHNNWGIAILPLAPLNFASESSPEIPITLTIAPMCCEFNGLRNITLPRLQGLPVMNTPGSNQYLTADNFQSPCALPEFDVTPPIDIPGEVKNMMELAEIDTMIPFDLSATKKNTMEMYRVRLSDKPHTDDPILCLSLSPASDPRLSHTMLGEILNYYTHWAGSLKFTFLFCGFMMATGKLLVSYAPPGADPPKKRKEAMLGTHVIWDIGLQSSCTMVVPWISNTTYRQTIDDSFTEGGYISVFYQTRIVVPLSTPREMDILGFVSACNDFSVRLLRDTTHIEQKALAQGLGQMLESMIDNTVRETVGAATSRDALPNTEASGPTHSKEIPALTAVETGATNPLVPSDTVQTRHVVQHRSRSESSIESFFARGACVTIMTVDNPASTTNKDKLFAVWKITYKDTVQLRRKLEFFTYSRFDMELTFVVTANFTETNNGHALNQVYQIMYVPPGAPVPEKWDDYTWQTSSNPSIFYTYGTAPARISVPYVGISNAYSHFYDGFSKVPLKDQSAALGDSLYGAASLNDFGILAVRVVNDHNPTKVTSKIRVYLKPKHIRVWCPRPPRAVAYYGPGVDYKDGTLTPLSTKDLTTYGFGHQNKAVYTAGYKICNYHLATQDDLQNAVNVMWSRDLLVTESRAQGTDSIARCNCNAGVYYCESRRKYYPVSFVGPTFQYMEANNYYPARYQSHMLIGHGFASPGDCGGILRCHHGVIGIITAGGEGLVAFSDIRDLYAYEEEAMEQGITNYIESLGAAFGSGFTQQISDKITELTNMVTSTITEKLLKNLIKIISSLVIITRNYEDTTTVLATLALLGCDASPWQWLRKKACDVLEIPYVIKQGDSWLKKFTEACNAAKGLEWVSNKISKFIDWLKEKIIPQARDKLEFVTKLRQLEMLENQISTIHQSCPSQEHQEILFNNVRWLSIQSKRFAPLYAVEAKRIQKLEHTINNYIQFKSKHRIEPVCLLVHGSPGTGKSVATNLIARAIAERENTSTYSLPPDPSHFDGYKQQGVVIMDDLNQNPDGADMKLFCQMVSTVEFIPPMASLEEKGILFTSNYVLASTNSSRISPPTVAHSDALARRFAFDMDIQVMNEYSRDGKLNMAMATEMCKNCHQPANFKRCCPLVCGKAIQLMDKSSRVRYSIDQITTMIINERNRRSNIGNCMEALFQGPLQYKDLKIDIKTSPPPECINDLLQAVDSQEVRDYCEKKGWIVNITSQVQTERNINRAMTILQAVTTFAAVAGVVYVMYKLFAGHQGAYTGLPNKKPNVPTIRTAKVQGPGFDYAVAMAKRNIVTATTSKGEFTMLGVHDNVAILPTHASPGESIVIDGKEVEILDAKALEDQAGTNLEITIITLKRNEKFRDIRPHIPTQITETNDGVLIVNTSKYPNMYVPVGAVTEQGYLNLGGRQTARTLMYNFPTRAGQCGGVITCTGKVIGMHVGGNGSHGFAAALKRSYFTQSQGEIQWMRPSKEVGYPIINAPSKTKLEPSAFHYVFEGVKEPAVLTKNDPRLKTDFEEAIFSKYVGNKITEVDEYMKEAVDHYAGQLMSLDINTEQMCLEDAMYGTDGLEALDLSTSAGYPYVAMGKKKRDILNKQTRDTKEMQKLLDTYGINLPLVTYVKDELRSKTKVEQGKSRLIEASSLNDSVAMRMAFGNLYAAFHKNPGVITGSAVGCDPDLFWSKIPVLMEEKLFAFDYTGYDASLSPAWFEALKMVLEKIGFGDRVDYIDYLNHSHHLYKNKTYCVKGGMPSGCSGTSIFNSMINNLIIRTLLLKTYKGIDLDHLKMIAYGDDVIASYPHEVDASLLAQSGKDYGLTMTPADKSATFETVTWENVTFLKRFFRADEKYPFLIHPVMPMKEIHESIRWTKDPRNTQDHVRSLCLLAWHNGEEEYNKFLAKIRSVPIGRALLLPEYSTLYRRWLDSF

The compounds below were run against Genome polyprotein (Poliovirus type 1 (strain Mahoney)) (UniProt P03300) (assay: poliovirus RdRp elongation inhibitors, primary screen, biochemical, fluorescence polarization, total intensity (AID 588519)). Conditions: poliovirus polymerase elongation, active compounds read low, compound at 16.7 µg/mL.

Row | SMILES | % elongation
1 | CCc1nc2c(n1)c1c(non1O)c1c2no[n+]1[O-] | active: 79%
